Compound potency records, mixed from different reports. Data source: NIAID ChemDB in PubChem.

All rows: target-level tests

ICn: concentration for n% inhibition. An empty or dashed field is not shown. Conditions beyond the fields shown may differ between rows. Two numbers with a dash give a range or band.

compound	target	strain or isolate	species	measure	method	result
O=C(c1ccc([N+](=O)[O-])o1)N1CCN(c2nc3c(F)cc(F)cc3s2)CC1	Thioredoxin reductase	-	Plasmodium falciparum	IC50	-	5 µM
O=C(/C=C/c1ccc(Cl)cc1)NCCCCNc1ccnc2cc(Cl)ccc12	Falcipain-2 (FP2)	Recombinant	Plasmodium falciparum	IC50	fluorescence	>50 µM
COc1cc(NC(C)CCCN)c2nccc(C)c2c1OCCCCc1ccccc1	Hematin	-	Plasmodium falciparum	IC50	nucleotide incorporation	700 µM
O=C(/C=C/c1ccc([N+](=O)[O-])cc1)NCCCCNc1ccnc2cc(Cl)ccc12	Falcipain-2 (FP2)	Recombinant	Plasmodium falciparum	IC50	fluorescence	>50 µM
CCCOc1ccc(C2Sc3ccccc3NC3=C2C(=O)c2ccccc23)cc1N(C)C	NDH2	-	Plasmodium falciparum	IC50	fluorescence	>20 µM
CC(C)Cn1c(Sc2ccc(C#N)c([N+](=O)[O-])c2)nnc1-c1ccccc1Cl	Thioredoxin reductase	-	Plasmodium berghei	IC50	-	<4 µM
Nc1nc2c(ncn2CCOCCP(=O)(O)O)c(=O)[nH]1	Hypoxanthine-guanine-xanthine phosphoribosyltransferase	-	Plasmodium falciparum	Ki	absorbance	0.1 µM
CCOC(=O)COc1cccc(-c2cc(Cl)cc(C3(C4CCC4)C(C#N)=C(N)Oc4n[nH]c(C)c43)c2)c1	Serine hydroxymethyltransferase	-	Plasmodium falciparum	IC50	absorbance	0.2 µM
N#CCN(CCn1cnc2c(=O)[nH]c(N)nc21)CCP(=O)(O)O	Hypoxanthine-guanine-xanthine phosphoribosyltransferase	-	Plasmodium falciparum	Ki	absorbance	>250 µM
CC(C)n1cc(C2=CN=C3CC=C(NC4CCN(C)CC4)N=[N+]23)cn1	Calcium-dependent protein kinase 1	-	Plasmodium falciparum	IC50	-	0.546 µM
Cc1[nH]nc2c1C(c1cc(Cl)cc(-c3cccnc3)c1)(C1CCC1)C(C#N)=C(N)O2	Serine hydroxymethyltransferase	-	Plasmodium falciparum	Ki	absorbance	0.3 µM
CCCCCCOc1c(OC)cc(NC(C)CCCN)c2nc(OC)c(C)cc12	Hematin	-	Plasmodium falciparum	IC50	nucleotide incorporation	41 µM
CN1CCC(NC2=CCC3=NC=C(c4cnn(-c5ncccn5)c4)[N+]3=N2)CC1	Calcium-dependent protein kinase 1	-	Plasmodium falciparum	IC50	-	0.331 µM
Nc1nc2c(ncn2[C@@H]2CNC[C@@H]2OCP(=O)(O)O)c(=O)[nH]1	Hypoxanthine-guanine-xanthine phosphoribosyltransferase	-	Plasmodium falciparum	Ki	absorbance	2 µM
O=C(c1ccc([N+](=O)[O-])o1)N1CCN(c2nc3c(Cl)cccc3s2)CC1	Thioredoxin reductase	-	Plasmodium falciparum	IC50	-	5.4 µM
Cc1c(-c2ccc(-c3ccc(OC(C)(C)C)cc3)nc2)[nH]c2ccccc2c1=O	PfNDH2	-	Plasmodium falciparum	IC50	-	0.014 µM
O=C(/C=C/c1ccccc1[N+](=O)[O-])NCCCCNc1ccnc2cc(Cl)ccc12	Falcipain-2 (FP2)	Recombinant	Plasmodium falciparum	IC50	fluorescence	>50 µM
Cc1[nH]nc2c1C(c1cc(Br)cc(C#N)c1)(C1CC=CC1)C(C#N)=C(N)O2	Serine hydroxymethyltransferase	-	Plasmodium falciparum	Ki	absorbance	0.593 µM
CN1CCC(NC2=CCC3=NC=C(c4cnn(-c5ccc(F)cc5)c4)[N+]3=N2)CC1	Calcium-dependent protein kinase 1	-	Plasmodium falciparum	IC50	-	0.013 µM
C=C1C(=O)O[C@H]2C1CC[C@@]1(C)C=CC(=O)C(=C)[C@H]21	Lactase dehydrogenase	K1	Plasmodium falciparum	IC50	LDH	3.516–4.674 µM
O=C(/C=C/c1cccc([N+](=O)[O-])c1)NCCCCNc1ccnc2cc(Cl)ccc12	Falcipain-2 (FP2)	Recombinant	Plasmodium falciparum	IC50	fluorescence	>50 µM
Nc1nc2c(ncn2CCOCCP(=O)(O)O)c(=O)[nH]1	Hypoxanthine-guanine-xanthine phosphoribosyltransferase	-	Plasmodium falciparum	Ki	absorbance	0.1 µM
CO[C@H](C(=O)NO)[C@@H](CC(C)C)C(=O)N[C@H](C(=O)OC1CCCC1)c1ccccc1	PfM1AAP	-	Plasmodium falciparum	IC50	fluorescence	0.075 µM
COc1cc(C)c2c(OCc3cccc(C(F)(F)F)c3)c(OC)cc(NC(C)CCCN)c2n1	Hematin	-	Plasmodium falciparum	IC50	nucleotide incorporation	54 µM
Cc1[nH]nc2c1C(c1cc(C#N)cc(-c3ccc(C(=O)N(C)C)s3)c1)(C(C)C)C(C#N)=C(N)O2	Serine hydroxymethyltransferase	-	Plasmodium falciparum	Ki	absorbance	0.272 µM
O=C(/C=C/c1cccc(F)c1)NCCCCNc1ccnc2cc(Cl)ccc12	Falcipain-2 (FP2)	Recombinant	Plasmodium falciparum	IC50	fluorescence	>50 µM
COc1cc(NC(C)CCCN)c2nccc(C)c2c1OCCCCCc1ccccc1C(F)(F)F	Hematin	-	Plasmodium falciparum	IC50	nucleotide incorporation	630 µM
O=C(/C=C/c1ccc(F)cc1)NCCCCNc1ccnc2cc(Cl)ccc12	Falcipain-2 (FP2)	Recombinant	Plasmodium falciparum	IC50	fluorescence	>50 µM
O=c1[nH]cnc2c1ncn2CCOCCP(=O)(O)O	Hypoxanthine-guanine-xanthine phosphoribosyltransferase	-	Plasmodium falciparum	Ki	absorbance	0.3 µM

The last 2 rows once more:

compound,target,strain or isolate,species,measure,method,result
O=C(/C=C/c1ccc(F)cc1)NCCCCNc1ccnc2cc(Cl)ccc12,Falcipain-2 (FP2),Recombinant,Plasmodium falciparum,IC50,fluorescence,>50 µM
O=c1[nH]cnc2c1ncn2CCOCCP(=O)(O)O,Hypoxanthine-guanine-xanthine phosphoribosyltransferase,-,Plasmodium falciparum,Ki,absorbance,0.3 µM